Data on one molecule can be found in publication PMC9274624 (2022).

The target in the assay is SARS-CoV-2 prototype RBD (residues 319-541) (SARS-CoV-2, UniProt P0DTC2 319-541). Kind of assay: SPR. In general terms: SPR reads the build-up and loss of mass on a sensor chip optically.

B1: palm-civet ACE2 peptidase domain (residues 19-615) (domain or fragment)
chain: STTEELAKTFLETFNYEAQELSYQSSVASWNYNTNITDENAKNMNEAGAKWSAYYEEQSKLAQTYPLAEIQDAKIKRQLQALQQSGSSVLSADKSQRLNTILNAMSTIYSTGKACNPNNPQECLLLEPGLDNIMENSKDYNERLWAWEGWRAEVGKQLRPLYEEYVALKNEMARANNYEDYGDYWRGDYEEEWTGGYNYSRNQLIQDVEDTFEQIKPLYQHLHAYVRAKLMDTYPSRISRTGCLPAHLLGDMWGRFWTNLYPLTVPFGQKPNIDVTDAMVNQNWDARRIFKEAEKFFVSVGLPNMTQGFWENSMLTEPGDGRKVVCHPTAWDLGKGDFRIKMCTKVTMDDFLTAHHEMGHIQYDMAYAAQPFLLRNGANEGFHEAVGEIMSLSAATPNHLKTIGLLSPAFSEDNETEINFLLKQALTIVGTLPFTYMLEKWRWMVFKGAIPKEQWMQKWWEMKRNIVGVVEPVPHDETYCDPASLFHVANDYSFIRYYTRTIYQFQFQEALCQIAKHEGPLHKCDISNSTEAGKKLLEMLSLGRSEPWTLALERVVGAKNMNVTPLLNYFEPLFTWLKEQNRNSFVGWDTDWRPYSD
As usually defined, the Kd is the equilibrium constant for the complex coming apart. Molecule B1 yielded a Kd of 38 µM.
